Measured values taken from US10143737B2 (Bionor Immuno AS, priority 2014, dated 2018).

Assay: general procedure: Fmoc solid-phase peptide synthesis; Tenta Gel P RAM, theoretical loading 0.20 meq/g
Conditions: whole synthesis, analytical HPLC

Row | Substance | final HPLC purity
1 | KALGPGATLQTPWTACQGVG-NH2 | 87%
2 | RAIPIPAGTLLSGGGRAIYKRTAILG-NH2 | more than 95%
3 | RALGPAATLQTPWTASLGVG-NH2 | more than 95%
4 | RFIIPNIFTALSGGRRALLYGATPYAIG-NH2 | more than 95%
5 | RWLLLGLNPLVGGGRLYSPTSILG-NH2 | more than 95%
6 | WIIPGLNPLVGGGKLYSPTSILCG-NH2 | 95%

Assay: Fmoc solid-phase peptide synthesis; Tenta Gel P RAM, theoretical loading 0.20 meq/g
Conditions: whole synthesis, analytical HPLC

Row | Substance | final HPLC purity
7 | KFIIPNIFSALGGAISYDLNTNILNCI | more than 80%
8 | KFIIPNIFSALSGGGAISYDLNTFLNCIG | more than 80%
9 | RNIPIPVGDIYGGGDIYKRWQALCL | 85%
